## Library screen at single concentrations

From ChEMBL document CHEMBL3988442, “University of Dundee, Small-Polar-MMV Screening Library” (2021).

Mtb cholesterol medium: 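Whole-cell growth test on Mycobacterium tuberculosis, read after 4 days in a medium based on cholesterol and the lipid DPPC; the read-out is not stated. Tested at 50 µM. Higher reads as more growth inhibition (inferred: compounds with an IC50 in retests scored well above the rest). About 69,000 compounds were tested under these conditions; 0.54% (about 370) showed 50% or more at least once.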
Mtb glucose medium: 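Phenotypic screen: M. tuberculosis growth, glucose 7H9 medium, 3 days; the read-out is not stated. Tested at 50 µM. The record gives no direction; compounds that gave an IC50 in retests scored well above the rest, so higher reads as more growth inhibition. About 69,000 compounds were tested under these conditions; 1.1% (about 760) showed 50% or more at least once.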

Values are the deposited “Percent Effect”, in %. The controls that fix the scale are not given in the record; negative values are as filed. Many other results are left out here, so strong results are more common than in the screen. Two or more numbers in one place are separate tests of the same structure; such repeats can differ widely. A dash means the value is not listed here; it may have been measured.

Cc1n[nH]c(C)c1NC(=O)c1cccc(OCC(F)(F)F)n1 gave Mtb glucose medium: 15.47%. With CN(Cc1nc(CC2CC2)no1)CC1COc2ccccc2O1 (stereo not shown) the screen gave Mtb cholesterol medium: 43.67%. Result for Cc1cnc(NC(=O)c2csc(NCC(C)C)n2)s1 was Mtb glucose medium: 59.28%. With CC(NC(=O)NCCCO)c1ccc2c(c1)OCCO2 (stereo not shown) the screen gave Mtb glucose medium: 4.556%. COC1(CNC(=O)c2ccc(Cl)c(Cl)c2)CCSC1 (stereo not shown) gave Mtb cholesterol medium: 13.15%. CC(CN1CCOCC1)NC(=O)c1cc(Cl)c2c(c1)OCO2 (stereo not shown) read Mtb glucose medium: 9.891%. For CCc1c(C(=O)NCC2CCS(=O)(=O)C2)cnn1-c1ccc(C)cc1 (stereo not shown) the result was Mtb cholesterol medium: 5.975%; Mtb glucose medium: 3.03%.

With Cc1ccc(C(=O)N2CCCc3c(c(=O)n(C)n3C)C2)o1 the screen gave Mtb cholesterol medium: -27.81% and -10.42%. COc1cccc(COCC(=O)N2CCCCCC2)c1 gave Mtb cholesterol medium: -10.42%; Mtb glucose medium: -2.463%. For Cc1cccc(CN2CCN(C(=O)c3cc(C4CC4)[nH]n3)CC2)c1 the result was Mtb cholesterol medium: 66.4%; Mtb glucose medium: 68.76% and 58.57%. For Cc1cc(C)n(-c2ccc(NCCNS(=O)(=O)c3ccccc3)nn2)n1 the result was Mtb cholesterol medium: -8.171%; Mtb glucose medium: -1.012%. CCS(=O)(=O)N1CCN(c2cc(-n3cnc(C)c3C)nc(C)n2)CC1 gave Mtb glucose medium: 50.4%. Result for COc1ccc(CNCC2CC2)cc1F was Mtb glucose medium: 13.96%. For CC(C)(C)NC(=O)CNc1ccc(C#N)c(C(F)(F)F)c1 the result was Mtb glucose medium: 25.28%.

Result for O=C(c1cnccn1)N1CCCC(c2cccc(-n3ccnc3)n2)C1 (stereo not shown) was Mtb glucose medium: 6.336%. [H][C@]12CC[C@]([H])(CN(S(=O)(=O)c3cccc(F)c3)C1)N(Cc1ccccc1)C2 gave Mtb glucose medium: 52.45%. CCN(CC)CCc1nc2c([nH]1)CC(c1ccc(Cl)cc1)CNC2=O (stereo not shown) gave Mtb cholesterol medium: -2.004%. With CCCc1ccc(OC23CCCN(CC2)C3)c(OC)c1 (stereo not shown) the screen gave Mtb cholesterol medium: 66.9%; Mtb glucose medium: 73.34%. With Fc1cc(Oc2ccc(C(F)(F)F)cn2)cc(F)c1CN1CCCC1 the screen gave Mtb cholesterol medium: 2.741%; Mtb glucose medium: 7.435%. Result for CCC(CO)NCc1ccc(-c2ccc(Cl)cc2)o1.Cl (stereo not shown) was Mtb cholesterol medium: 31.86%; Mtb glucose medium: 23.68% and 22.45%. Result for CN(Cc1ccccc1F)C(=O)c1cc(Cl)c[nH]1 was Mtb cholesterol medium: 29.92%; Mtb glucose medium: 22.62%.

With Cc1nc(N2CCCC2)nc2c1CCN(Cc1ccoc1)CC2.O=C(O)C(F)(F)F the screen gave Mtb cholesterol medium: 74.21% and 75.25%; Mtb glucose medium: 76.26% and 65.22%. With CC(C(=O)N1CCC(Cc2ccc(F)cc2)CC1)n1ccnc1 (stereo not shown) the screen gave Mtb glucose medium: 14.44%. Result for Cc1c(F)cccc1S(=O)(=O)NCCN.Cl was Mtb glucose medium: 31.37% and -0.09832%. COc1cccc(Cc2nnc(SC3CCOC3=O)o2)c1 (stereo not shown) gave Mtb glucose medium: -16.53%. With FC(F)Oc1ccc(NCc2nc(C3CC3)no2)c(OC(F)F)c1 the screen gave Mtb glucose medium: 36.04% and 26.67%. Result for O=C(O)C(F)(F)F.O=C(O)C(F)(F)F.O=C(O)C(F)(F)F.[H][C@]12C[C@@H](Cn3cccn3)N(C(C)C)[C@@]1([H])CCN(Cc1ccoc1)C2 was Mtb glucose medium: 12.98% and 6.59%. Result for CC(NC(=O)CNc1cc2c(cc1Cl)OCCO2)c1ccco1 (stereo not shown) was Mtb cholesterol medium: -2.721%; Mtb glucose medium: 11.59%.

For CCCn1cnnc1-c1nc2c([nH]1)CC(c1ccc(Cl)cc1)CNC2=O (stereo not shown) the result was Mtb cholesterol medium: 61.66%. Cc1cnn(CC2CCCN2Cc2nccn2CC(F)(F)F)c1 (stereo not shown) gave Mtb glucose medium: 5.328%. Cc1nsc(NCCNS(=O)(=O)c2ccccc2)n1 read Mtb cholesterol medium: 6.611%; Mtb glucose medium: 0.8589% and 14.24%. With CCNc1ncc(C(=O)N2CCC(c3ccccc3C(=O)O)C2)cn1 (stereo not shown) the screen gave Mtb glucose medium: 120.3% and -0.4713%. Result for Cc1csc(N2CCCN(C(=O)c3csc(C)n3)CC2)n1 was Mtb glucose medium: 4.825%. CN(CCCNS(=O)(=O)N1CCC2(CC1)OCCO2)c1ccccc1 read Mtb cholesterol medium: -32.43% and 8.215%; Mtb glucose medium: -18.1%. Cc1cc(C[C@@H]2COC[C@H]2NCc2ccc(C(C)C)cc2)on1.O=C(O)CC(O)(CC(=O)O)C(=O)O read Mtb cholesterol medium: 48.35%; Mtb glucose medium: 49.64%.

Cc1cc(C)c(CNC(=O)NC2COc3ccccc3C2)c(=O)[nH]1 (stereo not shown) gave Mtb glucose medium: -6.217%. Result for CCn1ccnc1CN(C)C(C(=O)O)c1ccc(C(C)(C)C#N)cc1 (stereo not shown) was Mtb glucose medium: 32.18%. Cc1nc(-c2cccc(C(=O)O)c2)cc(C2CCN(C(C)C)C2)n1 (stereo not shown) gave Mtb glucose medium: 71.78%. For CCS(=O)(=O)N1CCCCC1c1nc(C(C)C)no1 (stereo not shown) the result was Mtb glucose medium: 80.76%. With CN(C)c1ccc(C(=O)N2CCCC2c2ccc(Cl)cc2)nn1 (stereo not shown) the screen gave Mtb glucose medium: 101.4% and -6.403%.

Some entries from above, unchanged:

compound,Mtb cholesterol medium,Mtb glucose medium
Cc1nc(-c2cccc(C(=O)O)c2)cc(C2CCN(C(C)C)C2)n1 (stereo not shown),-,71.78%
Cc1nc(N2CCCC2)nc2c1CCN(Cc1ccoc1)CC2.O=C(O)C(F)(F)F,74.21% and 75.25%,76.26% and 65.22%
CCS(=O)(=O)N1CCCCC1c1nc(C(C)C)no1 (stereo not shown),-,80.76%
Cc1n[nH]c(C)c1NC(=O)c1cccc(OCC(F)(F)F)n1,-,15.47%